PubChem BioAssay AID1259414, Drosophila RNAi Screening Center | 2018
The screen tested about 24,000 reagents; shown is a random part of those with a known target gene and a result. In the full data, about 1,210 (5%) were called active. 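Inactive calls also include excluded dsRNAs with several or no targets, genes unexpressed in JW18, and well A1, regardless of score.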 Unmarked entries are inactive. The numbers tell different reagents against one gene apart. A plus sign joins genes that one reagent is predicted to hit.

Purpose: 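Host factors increasing or decreasing Wolbachia levels in cultured fly cells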 (primary screen)
System: Drosophila JW18 cells infected with Wolbachia
Reagents: long dsRNA against Drosophila genes, 0.25 µg dsRNA per well of a 384-well plate
Duration: 5 days
Challenge: cells persistently infected with Wolbachia before knock-down; no added drug
Measurement: 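Automated imaging of bacterial rRNA staining divided by host cell count, reported as plate-normalised robust z-score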
Scale: Wolbachia per cell robust z: higher = more Wolbachia per host cell than the plate typical
Rule for the call: 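Hit when robust z is 1.5 or more, or -1.5 or less, in at least two of three replicates; excludes dsRNAs with several or no targets, genes not expressed in JW18 and well A1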

The opening 5 records as a preview:
no.	Target gene	reagent no.	Wolbachia per cell robust z, rep 1	Wolbachia per cell robust z, rep 2	Wolbachia per cell robust z, rep 3
1	CG5177	1	0.377	0.091	0.0495
2	CG7707	1	0.941	0.59	-1.73
3	CG17803	1	-1.37	-0.0284	0.198
4	CG17803	2	-2.96 (active)	-3.42	-0.561
5	Su(z)2 (Suppressor of zeste 2)	1	0.346	0.427	0.133

The list itself, repeating the preview:
no.	Target gene	reagent no.	Wolbachia per cell robust z, rep 1	Wolbachia per cell robust z, rep 2	Wolbachia per cell robust z, rep 3
1	CG5177	1	0.377	0.091	0.0495
2	CG7707	1	0.941	0.59	-1.73
3	CG17803	1	-1.37	-0.0284	0.198
4	CG17803	2	-2.96 (active)	-3.42	-0.561
5	Su(z)2 (Suppressor of zeste 2)	1	0.346	0.427	0.133
6	alphaCOP (Coat Protein (coatomer) alpha)	1	-0.0788	-0.658	1.08
7	mRpL51 (mitochondrial ribosomal protein L51)	1	-0.697	-0.805	-0.835
8	mRpL51 (mitochondrial ribosomal protein L51)	2	0.463	-0.235	0.427
9	CG13578	1	-1.66	-1.05	-2.82
10	Uxt (Uxt prefoldin-like subunit)	1	-8.79 (active)	-3.06	1.08
11	CG14367	1	-1.51	-0.808	-0.0825
12	CG31638	1	0.497	0.818	-0.248
13	CG31638	2	-0.331	-0.5	0.226
14	CG31638	3	0.655	0.326	1.9
15	Coprox (Coproporphyrinogen oxidase)	1	1.32	0.346	0.47
16	Coprox (Coproporphyrinogen oxidase)	2	0.0832 (active)	-1.67	-2.56
17	Rh3 (Rhodopsin 3)	1	-0.245	3.37	0.272
18	eIF4H1 (eukaryotic translation initiation factor 4H1)	1	0.614	0.965	1.56
19	CG31279	1	-0.574	-0.648	-0.00976
20	tnc (tenectin)	1	-0.0347	-1.65	0.955
21	tnc (tenectin)	2	0.1	-0.297	0.969
22	CG31626 + CG8677	1	-0.238	-0.309	-0.207
23	asRNA:CR43637 (antisense RNA:CR43637)	1	-0.743	0.737	0.136
24	hh (hedgehog)	1	-4.75	0.874	1.02
25	hh (hedgehog)	2	-0.417	0.313	-0.0218
26	hh (hedgehog)	3	-1.02	0.0713	0.0207
27	Cyp4p3 (Cytochrome P450 4p3)	1	-1.11	-0.0331	-0.165
28	Cyp4p3 (Cytochrome P450 4p3)	2	-1.28	-2	-1.21
29	b6	1	0.281	0.53	0.812
30	b6	2	1.02	0.459	1.39
31	CG16865	1	-0.246	-0.0461	0.284
32	ATPsynG (ATP synthase, subunit G)	1	-6.84	-8.47	0.282
33	CG42322	1	-0.647	-0.417	-0.837
34	CG42322	2	-0.544	-0.286	-0.985
35	CG42322	3	-0.416	-0.31	0.169
36	Obp56g (Odorant-binding protein 56g)	1	0.948	-2.04	0.858
37	Sik2 (Salt-inducible kinase 2)	1	-0.76	1.23	-0.678
38	Cpr67B (Cuticular protein 67B)	1	-4.19	-0.0545	-0.526
39	thw (thawb)	1	0.657	-0.427	-0.964
40	eEF1gamma (eukaryotic translation elongation factor 1 gamma)	1	0.222	0.489	0.493
41	eEF1gamma (eukaryotic translation elongation factor 1 gamma)	2	-1.56	0.736	0.105
42	CG31928	1	0.46	-0.0691	-0.354
43	BtbVII (BTB-protein-VII)	1	1.29	1.22	1.71
44	BtbVII (BTB-protein-VII)	2	0.816	0.766	0.231
45	BtbVII (BTB-protein-VII)	3	1.76	0.969	-4.79
46	ast (asteroid)	1	-2.81	0.0592	0.175
47	ast (asteroid)	2	-1.9	-1	-0.901
48	zye	1	-4.52	-0.843	0.254
49	CG33679	1	-0.771	-6.15	-2.11
50	Sur-8	1	-0.12	1.01	0.274
51	Ccdc85	1	0.00639	-6.86	-0.181
52	CG11052	1	-1.8	0.172	0.854
53	CG8541	1	0.295	0.773	0.498
54	CG8541	2	-0.222	-0.191	-0.575
55	swm (second mitotic wave missing)	1	0.16	0.448	0.999
56	swm (second mitotic wave missing)	2	0.848	-0.129	0.275
57	CG30460	1	0.559	-0.109	-0.404
58	CG30460	2	-0.571	-0.69	-0.166
59	dgt3 (dim gamma-tubulin 3)	1	0.302	0.423	0.617
60	dj-1beta	1	0.194	-0.118	-1.55
61	dj-1beta	2	0.134	0.31	-9.66
62	Sec13 (Secretory 13)	1	-0.885	0.699	-0.999
63	cindr (CIN85 and CD2AP related)	1	-1.08	-0.0512	-1.74
64	kis (kismet)	1	-0.486	-0.772	1.18
65	kis (kismet)	2	0.201	-1.91	0.256
66	kis (kismet)	3	1.15	0.226	-11.6
67	kis (kismet)	4	0.353	0.0435	0.369
68	lig (lingerer)	1	-0.498	1.78	-0.00933
69	lig (lingerer)	2	-0.806	-0.523	-0.374
70	lig (lingerer)	3	0.137	0.332	-0.123
71	tant (tantalus)	1	0.814	-2.95	0.673
72	Prosbeta5 (Proteasome beta5 subunit)	1	0.569	0.74	0.562
73	Prosbeta5 (Proteasome beta5 subunit)	2	1.3 (active)	2.55	2.55
74	mab-21	1	-0.378	0.325	-0.294
75	mab-21	2	0.0156	0.628	0.0643
76	CG3662	1	0.755	0.0768	-0.455
77	bbc (bb in a boxcar)	1	-0.362	0.202	-3.04
78	bbc (bb in a boxcar)	2	-0.634	-0.614	-0.824
79	CG9444	1	-0.197	-6.92	-0.827
80	Gs1l (GS1-like)	1	0.49	0.21	1.52
81	Josd (Josephin domain containing)	1	-2.5 (active)	-0.962	-1.71
82	cv-d (crossveinless d)	1	0.235	-0.298	0.125
83	cv-d (crossveinless d)	2	0.17	1.67	1.14
84	cv-d (crossveinless d)	3	-4.95 (active)	-1.54	-1.49
85	CG15525	1	0.434	0.453	0.166
86	CG15525	2	0.168	0.973	0.641
87	CG17751	1	-4.67	-0.252	-0.376
88	CG17751	2	0.297	-0.0611	0.272
89	CG17751	3	-0.292	0.535	0.567
